Measurements published in US7067500B2, “Betaines as adjuvants to susceptibility testing and antimicrobial therapy” (priority 1997, dated 2006).

Tested on: Mycobacteria (acid fast bacilli: AFB)
Details: CB-18 processing relative to NaOH

Q: How did the “increase in aggregate culture sensitivity” value turn out when `CCCCCCCCCCCCCCCCCC[N+](C)(C)CCCC(=O)[O-]` [CB-18, N-(3-carboxypropyl)-N,N-dimethyl-1-octadecanaminium, inner salt] was run?
A: The value was “approximately 46%”.

Q: And the “increase in culture sensitivity among MOTT disease positive specimens” value?
A: The value was 94.1%.

Q: What about the “reduction in culture sensitivity among MTB disease positive specimens” value of the same compound?
A: Its value is 12.1%.

Counter-ions that a name gives are not always drawn.
